Source: the supplement of paper PMC9931576
Human monoclonal antibodies against the spike receptor-binding domain (heavy:light variable regions). IC50 against pseudoviruses bearing the spike of naturally observed variants; lower = stronger; >10 µg/ml means not reached at the top dose. No active / inactive call. The stated detection limit is 0.0005 µg/ml; values near or below 0.001 µg/ml lie at the floor of the assay.

B1: BD55-5467 (protein)
chain 1: EVKLVESGGGLVQPGRSLRLSCSASGFTFDDYTMHWVRQAPGKGLEWVAGINWNSGSIGYADSVKGRFTISRDNAKNSLYLQVNSLRVEDTALYYCAKVVSAAAATLDDDAFDIWGQGTMVTVSS
chain 2: SSELTQDPAVSVALGQTVRITCQGDSLRSYYASWYQQKPGQAPVLLIYGKNNRPSGIPDRFSGSSSGNTASLTITGAQAEDEADYYCNSRDTSGNHLRVFGGGTKLTVL
B2: BD55-5505 (protein)
chain 1: QVQLVESGGGVVQPGRSLRLSCATSGFTFSSYGMHWVRQAPGKGLEWVAVILSDGNKEYYADSVKGRFTISRDNSKNTMYLQMNSLRAEDTAVYYCVREEFLYYYDINGAWPHFDYWGQGTLVTVSS
chain 2: QSVLTQPPSASETPGQRVTISCSGSNSNIGPNYVYWYQQLPGTAPKLLIYNNNQRPSGVPDRFSGSKSGTSASLAISGLRSEDEADYYCAAWDDSLSGVVFGGGTKLTVL
B3: BD55-5483 (protein)
chain 1: QVQLVQSGAEVKKPGSSVKVSCKASGDTFRSFALSWVRQAPGQGLEWMGVINPVFGAAHYAQKFQGRVTFIPDERTSTAYMVLSSLRSADTAVYYCARLFPSGNPDRPEDGVDVWGQGTMVTVSS
chain 2: DIQMTQSPSSLSASVGDRVTISCQASQGISKYLNWYQQKPGKAPKLLIYYASNLETGVPSRFSGSGFGTDFYLTISSLQPEDVATYYCQRFDDLPSYTFGQGTKLEIK
B4: BD55-5438 (protein)
chain 1: QLQLQESGPGLVKPSETLSLTCSVSGGSISSRSFSWGWIRQPPGKGLEWIGSIYYSGSTSYNPSLRSRITISVETSQNQFSLRLSSVTAADTAVYFCVRHEGVDYYFNYWGQGTLVTVSS
chain 2: DIQMTQSPSTLSASVGDRVTITCRASQSISRWLAWYQQKPGKAPKLLIYMASILESGVPSRFSGSGSGTEFTLTISSLQPDDFATYYCQQYNSDSYSFAQGTKLDIK
B5: BD55-5449 (protein)
chain 1: QGQLVQSGAEVKKPGASVKVSCKASGYTSNNYAIHWVRQAPGQRLEWMGCINAGSGYTKYSQKFQDRVTITRDTSASTAYMELSSLRSEDTAQYYCARAIIAEAGMATFYHYYGMDVWGQGTTVIVSS
chain 2: SYELTQPPSVSVSPGQTARITCSGDALPKQYAYWYQQKPGQAPALIIYKDSERPSGIPERFSGSSSGTTATLTISGVQAEDEADYYCQSADSSTIYAIFGGGTKLTVL
B6: BD55-5450 (protein)
chain 1: QVQLQQWGTGLLKPSETLSLTCGVSGGSLGGYYWTWIRQPPGKGLEWIGEIYHSGSANYNPSLKSRVAISVDTSKNQFSLRLTSVTAADTGVYYCAREEAVAVIDLWGQGALVTVSA
chain 2: QSALTQPASVSGSPGQSITISCTGTSSDIGSHNYVSWYQVHPGKAPKLIIYDVSKRPSGLSHRFSGSKSGNTASLTISGLQTEDEADYYCCSYTSSTSYVLFGGGTQLTVL

These binders were tested against SARS-CoV-2 Omicron BA.1 spike pseudovirus (assay: pseudovirus neutralization IC50; higher = weaker neutralization).
Description: (§1)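 Single-round VSV luciferase pseudovirus mixed with antibody dilutions for 1 h and put on Huh-7 cells for about a day; IC50 from the dose curve.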
B1 was tested, and the “pseudovirus neutralization IC50” value was greater than 10 µg/mL. In the case of B2, the “pseudovirus neutralization IC50” value is reported as greater than 10 µg/mL. With B3 the “pseudovirus neutralization IC50” value was 0.00647 µg/mL. In the case of B4, the “pseudovirus neutralization IC50” value is reported as greater than 10 µg/mL. For B5, the “pseudovirus neutralization IC50” value was 0.0199 µg/mL. In the case of B6, the “pseudovirus neutralization IC50” value is reported as greater than 10 µg/mL.

These binders were tested against SARS-CoV-2 Omicron BA.2 spike pseudovirus in the same assay as above.
Description: as §1
B1 was tested, and the “pseudovirus neutralization IC50” value was greater than 10 µg/mL. B2 was tested, and the “pseudovirus neutralization IC50” value was greater than 10 µg/mL. In the case of B3, the “pseudovirus neutralization IC50” value is reported as 0.0133 µg/mL. In the case of B4, the “pseudovirus neutralization IC50” value is reported as greater than 10 µg/mL. With B5 the “pseudovirus neutralization IC50” value was 0.494 µg/mL. With B6 the “pseudovirus neutralization IC50” value was greater than 10 µg/mL.

Each binder was assayed against SARS-CoV-2 Omicron BA.2.75 spike pseudovirus in the same assay as above.
Description: as §1
With B1 the “pseudovirus neutralization IC50” value was greater than 10 µg/mL. For B2, the “pseudovirus neutralization IC50” value was greater than 10 µg/mL. In the case of B3, the “pseudovirus neutralization IC50” value is reported as 0.00183 µg/mL. For B4, the “pseudovirus neutralization IC50” value was greater than 10 µg/mL. For B5, the “pseudovirus neutralization IC50” value was greater than 10 µg/mL. For B6, the “pseudovirus neutralization IC50” value was greater than 10 µg/mL.

Each binder was assayed against SARS-CoV-2 Omicron BA.5 spike pseudovirus in the same assay as above.
Description: as §1
In the case of B1, the “pseudovirus neutralization IC50” value is reported as greater than 10 µg/mL. In the case of B2, the “pseudovirus neutralization IC50” value is reported as greater than 10 µg/mL. In the case of B3, the “pseudovirus neutralization IC50” value is reported as 0.00394 µg/mL. B4 was tested, and the “pseudovirus neutralization IC50” value was greater than 10 µg/mL. B5 was tested, and the “pseudovirus neutralization IC50” value was 1.19 µg/mL. In the case of B6, the “pseudovirus neutralization IC50” value is reported as greater than 10 µg/mL.

What follows are binders tested against SARS-CoV-2 Omicron BQ.1.1 spike pseudovirus in the same assay as above.
Description: as §1
With B1 the “pseudovirus neutralization IC50” value was greater than 10 µg/mL. For B2, the “pseudovirus neutralization IC50” value was greater than 10 µg/mL. In the case of B3, the “pseudovirus neutralization IC50” value is reported as 0.00284 µg/mL. In the case of B4, the “pseudovirus neutralization IC50” value is reported as greater than 10 µg/mL. With B5 the “pseudovirus neutralization IC50” value was greater than 10 µg/mL. For B6, the “pseudovirus neutralization IC50” value was greater than 10 µg/mL.

These binders were tested against SARS-CoV-2 Omicron XBB spike pseudovirus in the same assay as above.
Description: as §1
With B1 the “pseudovirus neutralization IC50” value was greater than 10 µg/mL. B2 was tested, and the “pseudovirus neutralization IC50” value was greater than 10 µg/mL. With B3 the “pseudovirus neutralization IC50” value was 0.00436 µg/mL. B4 was tested, and the “pseudovirus neutralization IC50” value was greater than 10 µg/mL. B5 was tested, and the “pseudovirus neutralization IC50” value was greater than 10 µg/mL. In the case of B6, the “pseudovirus neutralization IC50” value is reported as greater than 10 µg/mL.

What follows are binders tested against SARS-CoV-2 early D614G spike pseudovirus in the same assay as above.
Description: as §1
B1 was tested, and the “pseudovirus neutralization IC50” value was 2.34 µg/mL. B2 was tested, and the “pseudovirus neutralization IC50” value was greater than 10 µg/mL. With B3 the “pseudovirus neutralization IC50” value was 0.0138 µg/mL. With B4 the “pseudovirus neutralization IC50” value was 0.548 µg/mL. With B5 the “pseudovirus neutralization IC50” value was 0.00463 µg/mL. B6 was tested, and the “pseudovirus neutralization IC50” value was 4.25 µg/mL.
